Results of unrelated studies side by side (data: NIAID ChemDB).

Shared fields: whole-cell or culture tests; organism: Hepatitis C virus; measure: EC50

Lines come from different laboratories, so protocols vary.

{"compound": "CCCCCN(C)c1ccc(N(C(N)=O)c2nc(-c3ccccn3)cs2)cc1C(F)(F)F", "value": "<1 µM"}
{"compound": "CC1(C)CC(=O)C2=C(C1)Nc1c(O)cccc1N(C(=O)CCC(=O)N1CCC(C(N)=O)CC1)C2c1ccc(OCc2ccccc2)cc1Cl", "strain": "1b", "read by": "luciferase / reporter gene / replicon", "value": "24.52 µM"}
{"compound": "CS(=O)(=O)NC(=O)c1c(-c2ccc[nH]c2=O)c2c3occc3c(F)cc2n1Cc1cc([N+](=O)[O-])ccc1F", "read by": "replicon", "value": "<0.5 µM"}
{"compound": "CCCCCCc1ccc(N(C(N)=O)c2nc(-c3cccnc3)c(F)s2)cc1C(F)(F)F", "value": "<1 µM"}
{"compound": "CN1CCN(c2cc3c(cc2F)c(=O)c(-c2noc(CC4CCCC4)n2)cn3CC2CCCCC2)CC1", "strain": "1b", "read by": "replicon", "value": "<0.5 µM"}
{"compound": "COCC(C)N(C(=O)C1CCC(C)CC1)c1cc(-c2ccc(NC(=O)c3cn(C)cn3)cc2)sc1C(=O)O", "strain": "1b", "read by": "replicon", "value": "<0.5 µM"}
{"compound": "C/C=N/N(c1ccc(OCCCCCCCC)cc1)c1nc(-c2cccnc2)cs1", "value": "<1 µM"}
{"compound": "CC1(C)CC(=O)C2=C(C1)Nc1c(O)cccc1NC2c1cccc(Cl)c1Cl", "strain": "1b", "read by": "luciferase / reporter gene / replicon", "value": ">100 µM"}
{"compound": "CCCCCCCCOc1ccc(N(C(N)=O)c2nc(-c3ccncc3)cs2)cc1", "value": ">10 µM"}
{"compound": "CC1(C)CC(=O)C2=C(C1)Nc1c(O)cccc1N(C(=O)CCC(=O)NCc1ccsc1)C2c1ccc(OCc2ccccc2)cc1Cl", "strain": "1b", "read by": "luciferase / reporter gene / replicon", "value": "11.36 µM"}
{"compound": "NS(=O)(=O)c1ccc(CNc2nc(NCC(F)(F)F)c3nc(-c4ccc(N5CCCC5=O)cc4)ccc3n2)cc1", "read by": "replicon", "value": "<0.1 µM"}
{"compound": "COCCN(C(=O)c1ccc(Cl)cc1Cl)c1cc(-c2ccc(-c3cc4ncccn4n3)cc2)sc1C(=O)O", "strain": "1b", "read by": "luciferase / replicon", "value": "<0.005 µM"}
{"compound": "CCOc1nc(NCc2ccc(F)cc2)nc2ccc(-c3ccc(N4CC(O)CC4=O)cc3)nc12", "read by": "replicon", "value": "<0.1 µM"}
{"compound": "CSc1ncc(Br)c(C(=O)N2c3cccc(O)c3NC3=C(C(=O)CC(C)(C)C3)C2c2ccc(OCc3ccccc3)cc2F)n1", "strain": "1b", "read by": "luciferase / reporter gene / replicon", "value": "1.97 µM"}
{"compound": "CC(C)N(C(=O)c1ccc(Cl)cc1F)c1cc(-c2ccccc2)sc1C(=O)O", "strain": "1a", "read by": "luciferase / replicon", "value": "1–5 µM"}
{"compound": "CC1(C)CC(=O)C2=C(C1)Nc1c(O)cccc1N(C(=O)c1ccco1)C2c1ccc(Cl)cc1Cl", "strain": "1b", "read by": "luciferase / reporter gene / replicon", "value": "10.07 µM"}
{"compound": "NC(=O)c1cc(Cn2c(C(=O)NS(=O)(=O)C3CC3)c(-c3ccc[nH]c3=O)c3c4c(c(F)cc32)CCO4)cs1", "read by": "replicon", "value": "<0.5 µM"}
{"compound": "CN(C)c1cc2c(cc1F)c(=O)c(-c1noc(C(C)(C)c3ccc(F)cc3)n1)cn2Cc1ccc(C(F)(F)F)cc1", "strain": "1b", "read by": "replicon", "value": "<2 µM"}
{"compound": "CC1CCC(C(=O)N(c2cc(-c3ccc(NC(=O)c4cscn4)cc3)sc2C(=O)[O-])C(C)C)CC1.C[NH2+]C[C@H](O)[C@@H](O)[C@H](O)[C@H](O)CO", "strain": "1b", "read by": "replicon", "value": "<0.5 µM"}
{"compound": "CCCCCOc1ccc(N(C(N)=O)c2nc(-c3cccnc3)c(F)s2)cc1C(F)(F)F", "value": "<1 µM"}
{"compound": "CS(=O)(=O)NC(=O)c1c(-c2ccc[nH]c2=O)c2c3occc3ccc2n1Cc1cc(C(N)=O)ccc1F", "read by": "replicon", "value": "<0.5 µM"}
{"compound": "NS(=O)(=O)c1ccc(CNc2nc(NCC(F)(F)F)c3nc(-c4csc(N5CCCC5)n4)ccc3n2)cc1", "read by": "replicon", "value": "<0.1 µM"}
{"compound": "CC(=O)NCCCCC(c1ccccc1)c1nc(-c2cn(Cc3ccc(Cl)cc3)c3cc(N4CCN(C)CC4)c(F)cc3c2=O)no1", "strain": "1b", "read by": "replicon", "value": "<10 µM"}
{"compound": "CCCCCCCCOc1ccc(N(C(=O)CO)c2nc(-c3cccnc3)cs2)cc1C(F)(F)F", "value": "<1 µM"}
{"compound": "COCC(C)N(C(=O)c1ccc(Cl)cc1Cl)c1cc(-c2ccccc2)sc1C(=O)O", "strain": "1a", "read by": "replicon / ELISA", "value": "1–5 µM"}
{"compound": "CC1CCC(C(=O)N(c2cc(-c3ccc(NC(=O)c4cn(C)cn4)cc3)sc2C(=O)O)C2CCC2)CC1", "strain": "1a", "read by": "replicon", "value": "<0.5 µM"}
{"compound": "CC(C)N(C(=O)c1ccc(Cl)cc1Cl)c1cc(-c2ccc(-c3cc4ncccn4n3)cc2)sc1C(=O)O", "strain": "1b", "read by": "replicon / ELISA", "value": "0.01–0.05 µM"}
{"compound": "Cc1cccc(Cn2c(C(=O)NS(=O)(=O)C(C)C)c(-c3ccc[nH]c3=O)c3c4occc4ccc32)c1F", "read by": "replicon", "value": "0.5–1.5 µM"}
{"compound": "CN1CCN(c2cc3c(cc2F)c(=O)c(-c2noc(Cc4ccc(F)cc4)n2)cn3CCN2CCOCC2)CC1", "strain": "1b", "read by": "replicon", "value": ">10 µM"}
{"compound": "CCn1nccc1C(=O)Nc1ccc(-c2cc(N(C(=O)C3CCC(C)CC3)C(C)C)c(C(=O)O)s2)cc1", "strain": "1a", "read by": "replicon", "value": ">0.5 µM"}
{"compound": "CC1(C)CC(=O)C2=C(C1)Nc1c(O)cccc1N(C(=O)c1ccccn1)[C@H]2c1ccc(OCc2ccccc2)cc1F", "strain": "1b", "read by": "luciferase / reporter gene / replicon", "value": "0.58 µM"}
{"compound": "COc1nc(N)nc2c1ncn2[C@@H]1O[C@H](COP(=O)(N[C@@H](C)C(=O)OC(C)C)Oc2ccccc2)[C@@H](O)[C@@]1(C)F", "strain": "2a", "read by": "replicon", "conditions": "115 d", "value": "0.055 µM"}
{"compound": "CS(=O)(=O)NC(=O)c1c(-c2ccc[nH]c2=O)c2c3occc3c(F)cc2n1Cc1cc(F)ccc1F", "read by": "replicon", "value": "<0.5 µM"}
{"compound": "Cc1cc(C(=O)N2c3cccc(O)c3NC3=C(C(=O)CC(C)(C)C3)[C@H]2c2ccc(OCc3ccccc3)cc2F)no1", "strain": "1b", "read by": "luciferase / reporter gene / replicon", "value": "4.24 µM"}
{"compound": "COc1cc2c(=O)c(-c3nnc(Cc4ccc(Cl)cc4)o3)cn(CC3CCCCC3)c2cc1OC", "strain": "1b", "read by": "replicon", "value": "<10 µM"}
{"compound": "CCCCCOc1ccc(N(C(=O)Nc2ccccc2)c2nc(-c3cccnc3)cs2)cc1C(F)(F)F", "value": "<1 µM"}
{"compound": "CCOc1nc(NCc2ccc(CS(N)(=O)=O)cc2)nc2ccc(-c3ccc(F)cc3)nc12", "read by": "replicon", "value": "<0.1 µM"}
{"compound": "CS(=O)(=O)NC(=O)c1c(-c2ccc[nH]c2=O)c2c3occc3c(F)cc2n1Cc1cc(C(N)=O)cnc1F", "read by": "replicon", "value": "<0.5 µM"}
{"compound": "NC(=O)COc1ccc2c(c1)S(=O)(=O)N=C(c1c(O)c3cc(F)ccc3n(CCC3CC3)c1=O)N2", "strain": "1b 46002", "read by": "replicon", "value": "0.021 µM"}
{"compound": "CC1(C)CC(=O)C2=C(C1)Nc1c(O)cccc1N(C(=O)CCS(=O)(=O)c1ccccc1)C2c1ccc(OCc2ccccc2)cc1F", "strain": "1b", "read by": "luciferase / reporter gene / replicon", "value": "1.49 µM"}
{"compound": "CC(C)N(C(=O)c1ccc(Cl)cc1Cl)c1cc(-c2ccc(-c3cc4nccc(N)n4n3)cc2)sc1C(=O)O", "strain": "1b", "read by": "luciferase / replicon", "value": "<0.005 µM"}
{"compound": "CCOc1nc(NCc2ccc(S(N)(=O)=O)cc2)nc2ccc(-c3cccc(NS(=O)(=O)C4CC4)c3)nc12", "read by": "replicon", "value": "<0.1 µM"}
{"compound": "COCC(C)N(C(=O)C1CCC(C(F)(F)F)CC1)c1cc(-c2ccc(NC(=O)c3cscn3)cc2)sc1C(=O)O", "strain": "1b", "read by": "replicon", "value": "<0.5 µM"}
{"compound": "COc1cc2c(=O)c(-c3nnc(Cc4ccc(Cl)cc4)o3)cn(Cc3ccc(Cl)cc3)c2cc1OC", "strain": "1b", "read by": "replicon", "value": ">10 µM"}

Again, the opening 5 rows:

| compound | strain | read by | conditions | value |
|---|---|---|---|---|
| CCCCCN(C)c1ccc(N(C(N)=O)c2nc(-c3ccccn3)cs2)cc1C(F)(F)F | - | - | - | <1 µM |
| CC1(C)CC(=O)C2=C(C1)Nc1c(O)cccc1N(C(=O)CCC(=O)N1CCC(C(N)=O)CC1)C2c1ccc(OCc2ccccc2)cc1Cl | 1b | luciferase / reporter gene / replicon | - | 24.52 µM |
| CS(=O)(=O)NC(=O)c1c(-c2ccc[nH]c2=O)c2c3occc3c(F)cc2n1Cc1cc([N+](=O)[O-])ccc1F | - | replicon | - | <0.5 µM |
| CCCCCCc1ccc(N(C(N)=O)c2nc(-c3cccnc3)c(F)s2)cc1C(F)(F)F | - | - | - | <1 µM |
| CN1CCN(c2cc3c(cc2F)c(=O)c(-c2noc(CC4CCCC4)n2)cn3CC2CCCCC2)CC1 | 1b | replicon | - | <0.5 µM |

Blank or dashed fields: not listed here. ECn: concentration that inhibits the pathogen or its effect by n%. a–b is a range or a potency band.